Data as given in PubChem BioAssay AID624099 (ICCB-Longwood, 2012)
This is an unselected part of about 21,000 reagents. 497 of them (2.4%) were called active. 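Higher z means weaker E2 silencing; only reporter increases were scored, and knock-downs that hurt cell survival may mask genuine repressor factors.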 Entries without a mark were called inactive. No sequences are given here.

Test: 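Knock-downs relieving repression by E2 of an HPV18 LCR luciferase reporter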 (primary screen)
Cells: human C33A cervical carcinoma cells (HPV-negative) stably expressing BPV1 E2 and an HPV18 LCR luciferase reporter
Reagents: siRNA pool against human genes, 40 nM
Timing: 72 h
Read-out: 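HPV18 LCR reporter light per well, converted to plate-wise z-scores that exclude control wells, and averaged over triplicate plates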
Scale: mean z-score and z-score: higher = stronger reporter signal, weaker E2 silencing
Rule for the call: 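Hit if mean z-score reaches 2 and two or more of three replicate z-scores also reach 2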

Gene	PubChem SID	mean z-score	z-score, replicate A	z-score, replicate B	z-score, replicate C
MYC (MYC proto-oncogene, bHLH transcription factor)	SID134309834	0.48	0.41	0.65	0.36
ISCA1 (iron-sulfur cluster assembly 1)	SID134318791	-0.73	-0.72	-0.92	-0.53
LTBR (lymphotoxin beta receptor)	SID134312955	-2.04	-2.31	-1.77	-2.04
DRC4 (dynein regulatory complex subunit 4)	SID134315631	1.73	1.72	1.78	1.68
MPPED2 (metallophosphoesterase domain containing 2)	SID134314111	1.03	0.81	1.37	0.91
FRMD8P1 (FERM domain containing 8 pseudogene 1)	SID134318873	0.95	1.02	0.69	1.13
POLR3GL (RNA polymerase III subunit GL)	SID134318933	0.77	0.65	0.72	0.95
FAM181A-AS1 (FAM181A antisense RNA 1)	SID134328505	-0.22	0.01	-0.42	-0.24
RAB28 (RAB28, member RAS oncogene family)	SID134313449	-0.44	-0.59	-0.36	-0.38
GLIDR (glioblastoma down-regulated RNA)	SID134329386	-1.23	-1.19	-1.04	-1.44
RPS18P12 (ribosomal protein S18 pseudogene 12)	SID134328771	0.26	0.33	0.03	0.41
CNTN5 (contactin 5)	SID134312796	-0.36	-0.3	-0.32	-0.46
DYSF (dysferlin)	SID134309994	-1.02	-0.88	-1.09	-1.09
FANCA (FA complementation group A)	SID134323085	1.22	1.04	1.31	1.32
MYO1D (myosin ID)	SID134325664	0.2	0.35	0.1	0.14
DISC1 (DISC1 scaffold protein)	SID134324040	0.2	0.32	0.1	0.18
DISC1 (DISC1 scaffold protein)	SID134328768	0.51	0.26	0.31	0.95
GNL1 (G protein nucleolar 1)	SID134316341	-0.45	-0.25	-0.66	-0.45
L3MBTL3 (L3MBTL histone methyl-lysine binding protein 3)	SID134326149	-0.42	-0.31	-0.73	-0.21
MC3R (melanocortin 3 receptor)	SID134311098	-0.89	-0.79	-0.73	-1.14
ERVMER61-1 (endogenous retrovirus group MER61 member 1)	SID134327030	-0.73	-0.93	-0.63	-0.63
GAB3 (GRB2 associated binding protein 3)	SID134319287	-0.82	-0.71	-1.05	-0.71
LINC01501 (long independently transcribed non-coding RNA 1501)	SID134328142	1	1.25	0.73	1.03
